No dose or concentration is given here for some results.
Test system: HSV-1 strain K26 (GFP-expressing)
Assay: Comparison of pooled IC50 values in 2D
Assay type: cell-based
Settings: for difference in average potency between models (2D versus 3D): cell types and 2D:3D growth environment combined; for difference in potency for all models: discussion

| Compound | difference in average potency between models (2D versus 3D) [fold] | difference in potency for all models [fold] |
| --- | --- | --- |
| Cc1cccc(C)c1N(CC(=O)Nc1ccc(-c2ncon2)cc1)C(=O)C1CCS(=O)(=O)CC1 [Amenamevir] | < 3 | < 2 |
| Nc1ccn([C@@H]2O[C@H](CO)[C@@H](O)C2(F)F)c(=O)n1 [Gemcitabine] | < 3 | < 2 |
| CC(=O)O[C@H]1C[C@H](O[C@H]2[C@@H](O)C[C@H](O[C@H]3[C@@H](O)C[C@H](O[C@H]4CC[C@@]5(C)[C@H](CC[C@@H]6[C@@H]5C[C@@H](O)[C@]5(C)[C@@H](C7=CC(=O)OC7)CC[C@]65O)C4)O[C@@H]3C)O[C@@H]2C)O[C@H](C)[C@H]1O[C@@H]1O[C@H](CO)[C@@H](O)[C@H](O)[C@H]1O [Lanatoside C] | < 3 | < 2 |
| Cc1nc(N(C)C(=O)Cc2ccc(-c3ccccn3)cc2)sc1S(N)(=O)=O [Pritelivir] | < 3 | < 2 |
| CC1(C)CC(=O)c2c(C(F)(F)F)nn(-c3ccc(C(N)=O)c(N[C@H]4CC[C@H](O)CC4)c3)c2C1 [SNX-2112] | < 3 | < 2 |
| Fluoroemetine | < 3 | – |

Reference: article PMC11661117 (bioRxiv, 2025)
